Measured values from several laboratories, pooled; numbers as filed in NIAID ChemDB.

Shared fields: enzyme or target tests; organism: HIV-1; target: Reverse transcriptase; method: RT activity; measure: inhibition

An empty or dashed field is not shown.

smiles | strain or isolate | tested at | value
O=C1C2=C(SCCS2)C(=O)N1CCCN1CCN(c2ccc(F)cc2)CC1 | - | 200 µg/mL | 82.2%
CCCCCCCCCCCCCCCC(=O)Nc1c(O)cc(S(=O)(=O)O)c2ccccc12 | - | 50 µM | 99.98%
CCCCCCCCCCCCCCCC(=O)NCC1CC(OP(=O)(O)OCC2OC(n3cnc4c(N)ncnc43)C(OP(=O)(O)OCC3OC(n4cnc5c(N)ncnc54)C(O)C3O)C2O)C(n2cnc3c(N)ncnc32)O1 | IIIB | 100 µM | 61.9%
Cc1cc(C)c(S(=O)(=O)Nc2cc(C(=O)O)c(O)c(S(=O)(=O)O)c2)c(C)c1S(=O)(=O)Nc1cc(C(=O)O)c(O)c(S(=O)(=O)O)c1 | - | 50 µM | 98%
NCC1OC(n2cnc3c(N)ncnc32)C(OP(=O)(O)OCC2OC(n3cnc4c(N)ncnc43)C(OP(=O)(O)OCC3OC(n4cnc5c(N)ncnc54)C(O)C3O)C2O)C1O | IIIB | 100 µM | 77.5%
CCCCCCCCCCCCCCCC(=O)Nc1ccc(S(=O)(=O)O)c2ccccc12 | - | 50 µM | 0%
O=C1C2=C(SCCS2)C(=O)N1CC(O)CN1CCN(c2ccc(F)cc2)CC1 | - | 200 µg/mL | 82.2%
O=C(O)c1cc(NS(=O)(=O)c2cccc3c(S(=O)(=O)Nc4cc(C(=O)O)c(O)c(S(=O)(=O)O)c4)cccc23)cc(S(=O)(=O)O)c1O | - | 50 µM | 54%
C=C(C)C(O)Cc1c(O)c(Cc2c(O)c(C(C)=O)c(O)c(C)c2OC)c(O)c(C(C)=O)c1O | - | 10 µg/mL | 38%
CCCCCCCCCCCCCCCC(=O)NCC1OC(n2cnc3c(N)ncnc32)C(OP(=O)(O)OCC2OC(n3cnc4c(N)ncnc43)C(OP(=O)(O)OCCOCn3cnc4c(N)ncnc43)C2O)C1O | IIIB | 100 µM | 64%
O=C(CCCCCCCCC(=O)Nc1ccc(S(=O)(=O)O)c2ccccc12)Nc1ccc(S(=O)(=O)O)c2ccccc12 | - | 50 µM | 30%
COc1cc(O)c2c(=O)cc(-c3cc(OC)c(OC)c(OC)c3O)oc2c1 | - | 200 µg/mL | 82.2%
C/C1=C\C=C\C2(C)C=C(CO[C@H]3O[C@H](CO)[C@H](O)[C@H](O)[C@H]3O)C(C)CC23OC([O-])C(C3=O)C(O)/C=C/C2(C)C=C(C=O)C(C)CC23OC([O-])C(C3=O)C(O)/C(C)=C/C=C/C2C=C(CO[C@H]3O[C@H](CO)[C@H](O)[C@H](O)[C@H]3O)C(C)CC23OC([O-])C(C3=O)C(O)/C=C/C2(C)C=C(C=O)C(C)CC23OC([O-])C(C3=O)C1O | IIIB | 100 µg/mL | 39.2%
COc1c(C)c(O)c(C(C)=O)c(O)c1Cc1c(O)c(CC=C(C)C)c(O)c(C(C)=O)c1O | - | 10 µg/mL | 67%
O=C1C2=C(SCCS2)C(=O)N1CCCCN1CCN(c2ccccn2)CC1 | - | 200 µg/mL | 82.2%

The first 2 rows once more:

smiles | strain or isolate | tested at | value
O=C1C2=C(SCCS2)C(=O)N1CCCN1CCN(c2ccc(F)cc2)CC1 | - | 200 µg/mL | 82.2%
CCCCCCCCCCCCCCCC(=O)Nc1c(O)cc(S(=O)(=O)O)c2ccccc12 | - | 50 µM | 99.98%

Inhibition is in % at the dose shown (toxicity tests: loss of growth or viability). Lines come from different laboratories, so protocols vary.